Measured values from several laboratories, pooled; numbers as filed in NIAID ChemDB.

Shared fields: growth or infection tests; agent: HIV-1; read-out: EC50

An empty or dashed field is not shown. ECn: concentration that inhibits the pathogen or its effect by n%. Neighbouring rows are from separate reports.

compound,strain,changes,cells,read by,conditions,result
Nc1ccn([C@@H]2CO[C@H](CO)S2)c(=O)n1,RF,RT-M184I,C8166,p24,-,28 µM
Cc1nnc(SCC(=O)Nc2ccc(S(N)(=O)=O)cc2Cl)n1-c1cc(Br)cc2cccnc12,NL4-3,RT-Y188L,HeLa + HeLa-JC53,luciferase,-,0.19 µM
Nc1nc2c(ncn2COCCO)c(=O)[nH]1,CXCR4-tropic HIV pseudovirus,M184V,PHA-activated CD4+ lymphoblasts,GFP,-,50 µM
COc1ccc(CN[C@@H](C(=O)N[C@H]2c3ccccc3C[C@H]2O)[C@H](O)[C@H](Cc2ccccc2)NC(=O)[C@@H](NC(=O)OCc2ccccc2)C(C)(C)C)cc1,A018C,-,Primary T4 cells + T4,p24,-,0.04 µM
Cc1cc(Cl)cc(S(=O)(=O)c2cccc(N)c2C#N)c1,-,RT-V108I,HeLa + HELA CD4+,β-galactosidase,-,0.011 µM
CC(C)OC(=O)OCOP(=O)(CO[C@H](C)Cn1cnc2c(N)ncnc21)OCOC(=O)OC(C)C,NL4-3,A114S,TZM-gfp,GFP,-,0.04 µM
O=c1c2ccccc2n2nnc3ccc(NCCCN4CCN(CCCNc5ccc6nnn7c8ccccc8c(=O)c5c67)CC4)c1c32,BaL,-,MM + M/M,p24,-,0.0198 µM
Nc1ncnc2c1ncn2CCOCP(=O)(O)O,IIIB,-,HELA-T4 + HeLa,plaque count,-,0.9 µM
CCn1nc(Cc2ccc(Oc3ccccc3)cc2)cc1C1CCN(C[C@H]2CN([C@@H](C(=O)O)C3CCCCC3)C[C@@H]2c2cccc(F)c2)CC1,BaL,-,HeLa,β-galactosidase,50% human serum,<0.1 µM
Nc1ccn([C@H]2CC[C@@H](CO)O2)c(=O)n1,-,-,Primary lymphocytes + Lymphocytes,-,-,0.03 µM
Cc1ccnc2c1NC(=O)c1cccnc1N2C1CC1,Subtype B isolate BR48,-,PM1,p24,-,0.04 µg/mL
O=c1[nH]cnc2c1ncn2[C@H]1CC[C@@H](CO)O1,HXB2D (RT-M184V),RT-M184V,CBMC,p24,-,15.5 ± 1.9 µM
Cc1cn([C@H]2C[C@H](N=[N+]=[N-])[C@@H](CO)O2)c(=O)[nH]c1=O,3887(RT-M184M/V),RT-M184M/V,CBMC,RT activity,-,0.002 µM
CC[C@H](C)[C@H](C(=O)O)N1C[C@H](CN2CCC(c3cc(Cc4ccc(C)cc4)nn3CC)CC2)[C@@H](c2cccc(F)c2)C1,BaL,-,HeLa,β-galactosidase,50% human serum,<0.011 µM
CSCc1nnc(SCC(=O)Nc2ccc(C)cc2Br)n1-c1ccc(C)cc1,NL4-3,RT-K103N Y181C,HeLa + HeLa-JC53,luciferase,-,>10 µM
NC1CCC(CN2CC(=O)N3C[C@@H](N(CCOc4ccccc4)S(=O)(=O)c4cccc(F)c4)C[C@H]3C2=O)CC1,NL4-3,-,HeLaP4,β-galactosidase,-,0.241 µM
Nc1nc(N)c2ncn(CCOCP(=O)(O)O)c2n1,-,-,Primary lymphocytes + Lymphocytes,-,-,0.94 µM
Cc1cc(C#N)cc(C)c1Oc1nc(Nc2ccc(C#N)cc2)nc(N)c1Br,LAI,E138A,TZM-bl,-,-,0.0029 µM
Cc1cc(O)cc(S(=O)(=O)c2cccc(N)c2C#N)c1,-,RT-V106A Y181C,HeLa + HELA CD4+,β-galactosidase,-,2.1 µM
C[C@H](Cn1cnc2c(N)ncnc21)OCP(=O)(O)O,-,-,PBMCs,p24 / ELISA / antigen,-,1.5 µM
Cc1cn([C@H]2C[C@H](N=[N+]=[N-])[C@@H](CO)O2)c(=O)[nH]c1=O,-,-,MM + M/M,-,-,0.02 µM
Nc1ncnc2c1ncn2CCOCP(=O)(O)O,RF,-,C8166,p24,-,0.9 µM
Cc1ccc(-n2c(C)nnc2SCC(=O)Nc2cccc(Cl)c2)cc1,NL4-3,-,HeLa + HeLa-JC53,luciferase,-,>10 µM
O=C1N(Cc2ccc(CO)cc2)[C@H](Cc2ccccc2)[C@H](O)[C@@H](O)[C@@H](Cc2ccccc2)N1Cc1ccc(CO)cc1,Clinical isolate N,-,PBMC,p24,-,<0.018 µM
CC(C)=CCN1Cc2cc(Cl)cc3[nH]c(=S)n(c23)C[C@@H]1C,-,-,Primary lymphocytes + Lymphocytes,-,-,0.04 µg/mL
O=c1[nH]cnc2c1ncn2[C@H]1CC[C@@H](CO)O1,8684 CLADE C CLADE C,-,PBMC,p24,-,1.87 µM
Oc1ccccc1CN(CCN1CCCCC1)CC1CCCN(C2CCCC2)C1,LAI,-,MAGI,β-galactosidase,-,7.3 µM
CC[C@@H](C)[C@H](C(=O)O)N1C[C@H](CN2CCC(c3cc(Cc4ccc(OCC(F)(F)F)cc4)nn3CC)CC2)[C@@H](c2cccc(F)c2)C1,BaL,-,HeLa,β-galactosidase,50% human serum,<0.1 µM
c1cc(CN2CCCNCCNCCCNCC2)ccc1CN1CCCNCCNCCCNCC1,BaL,-,MAGI,β-galactosidase,-,>10 µM
CCn1nc(Cc2ccc(OC)cc2)cc1C1CCN(C[C@H]2CN([C@@H](C(=O)O)C(C)(C)C)C[C@@H]2c2cccc(F)c2)CC1,BaL,-,HeLa,β-galactosidase,50% human serum,<0.033 µM
Cc1ccc(-n2c(SCC(=O)Nc3ccc(C)cc3Br)n[nH]c2=O)cc1,NL4-3,RT-K103N Y181C,HeLa + HeLa-JC53,luciferase,-,>10 µM
Nc1nc(=O)n([C@@H]2CO[C@H](CO)S2)cc1F,HXB2D(RT-M184I),RT-M184I,CBMC,RT activity,-,4.5 µM
O=c1[nH]cnc2c1ncn2[C@H]1CC[C@@H](CO)O1,HXB2,RT-M41L Y181C T215Y,HT4 + HT4 LacZ-1,plaque count,-,0.6 µM
Cc1ccc2ccccc2c1-n1c(C)nnc1SCC(=O)Nc1ccccc1Br,NL4-3,RT-Y188L,HeLa + HeLa-JC53,luciferase,-,0.21 µM
c1cc(CN2CCCNCCNCCCNCC2)ccc1CN1CCCNCCNCCCNCC1,-,-,Primary lymphocytes + Lymphocytes,-,-,0.003 µg/mL
CCn1nc(Cc2cccc3ccccc23)cc1C1CCN(C[C@H]2CN([C@@H](C(=O)O)C(C)(C)C)C[C@@H]2c2cccc(F)c2)CC1,BaL,-,HeLa,β-galactosidase,50% human serum,<0.011 µM
CC(C)Nc1cccnc1N1CCN(C(=O)c2cc3cc(NS(C)(=O)=O)ccc3[nH]2)CC1,HXB2D,-,CBMC,RT activity,-,0.026 µM
CCn1nc(Cc2ccccc2)cc1C1CCN(C[C@H]2CN([C@@H](C(=O)O)C3CCCCC3)C[C@@H]2c2cccc(F)c2)CC1,BaL,-,HeLa,β-galactosidase,-,<0.0004 µM
CCOC(=O)[C@H](C)N[P@](=O)(CO[C@@H]1C=C(F)[C@H](n2cnc3c(N)ncnc32)O1)Oc1ccccc1,UG-92-024 (subtype D),-,PBMCs,p24 / ELISA / antigen,4 d,0.023 µM
Nc1nc(=O)n([C@H]2CO[C@@H](CO)S2)cc1F,HXB2D,-,CBMC,RT activity,-,3.4 µM
O=C1CCCN1CCCN1CC(=O)N2CC(N(CCOc3ccccc3)S(=O)(=O)c3cccc(F)c3)C[C@H]2C1=O,NL4-3,-,HeLaP4,β-galactosidase,-,0.248 µM
Cc1cc(Br)cc(S(=O)(=O)c2cccc(N)c2C#N)c1,-,RT-V108I,HeLa + HELA CD4+,β-galactosidase,-,0.017 µM
C[C@H](Cn1cnc2c(N)ncnc21)OCP(=O)(O)O,LAI,E138Q,TZM-bl,-,-,5.5 µM
Nc1ncnc2c1ncn2[C@@H]1O[C@H](OCP(=O)(O)O)C=C1F,-,-,PBMCs,p24 / ELISA / antigen,-,8.5 µM
COc1cc(C(F)(F)F)cc(S(=O)(=O)c2cccc(N)c2C#N)c1,-,RT-K103N,HeLa + HELA CD4+,β-galactosidase,-,1.8 µM
Nc1ncc(CN(CCN2CCCCC2)CC2CCCN(C3CCCC3)C2)cn1,BaL,-,MAGI,β-galactosidase,-,>10 µM
Cc1cn([C@H]2C[C@H](N=[N+]=[N-])[C@@H](CO)O2)c(=O)[nH]c1=O,-,-,Macrophages,p24 / ELISA / antigen,-,0.005 µM

Again, the opening 3 rows:

Nc1ccn([C@@H]2CO[C@H](CO)S2)c(=O)n1 ; strain: RF ; changes: RT-M184I ; cells: C8166 ; read by: p24 ; result: 28 µM
Cc1nnc(SCC(=O)Nc2ccc(S(N)(=O)=O)cc2Cl)n1-c1cc(Br)cc2cccnc12 ; strain: NL4-3 ; changes: RT-Y188L ; cells: HeLa + HeLa-JC53 ; read by: luciferase ; result: 0.19 µM
Nc1nc2c(ncn2COCCO)c(=O)[nH]1 ; strain: CXCR4-tropic HIV pseudovirus ; changes: M184V ; cells: PHA-activated CD4+ lymphoblasts ; read by: GFP ; result: 50 µM